Measured values from several laboratories, pooled; numbers as filed in NIAID ChemDB.

Shared fields: tests in culture; organism: HIV-2

Percent inhibition refers to the dose given; in toxicity tests it is the harm to the cells. ECn is the concentration giving n% inhibition of infection, replication or growth. Blank or dashed fields: not listed here. Lines come from different laboratories, so protocols vary.

structure	strain	method	cell line	measure	dose	result
O=c1ccn(-c2cn(CCCP(=O)(O)O)nn2)c(=O)[nH]1	ROD		CEM	inhibition	100 µM	0%
N#Cc1csc(NC(=O)NCCc2ccccc2)n1		cytopathic effect / XTT	MT-4	inhibition	10 µg/mL	0%
CCCCCCCCCCCC(=O)Oc1ccc(COP(=O)(OCc2ccc(OC(=O)CCCCCCCCCCC)cc2)OP(=O)(O)OC[C@@H]2C=C[C@H](n3cc(C)c(=O)[nH]c3=O)O2)cc1	ROD	syncytia / microscopy	CEM/TK-	EC50		0.23 µM
CCCOC12CS(=O)(=O)OC13[C@@H](CN2)O[C@@H](n1cc(C)c(=O)[nH]c1=O)[C@@H]3O	ROD		MT-4	EC50		>250 µM
Cc1nc(NC(=O)NCCc2ccccc2)sc1C		RT activity	MT-4	inhibition	100 µg/mL	93%
CCCCCCCC/C=C\CCCCCCCC(=O)Oc1ccc(COP(=O)(OCc2ccc(OC(=O)CCCCCCC/C=C\CCCCCCCC)cc2)OP(=O)(O)OC[C@@H]2C=C[C@H](n3cc(C)c(=O)[nH]c3=O)O2)cc1	ROD	syncytia / microscopy	CEM/TK-	EC50		0.65 µM
Nc1ncnc2c1ncn2Cc1cn(C(O)CP(=O)(O)O)nn1	ROD		CEM	inhibition	100 µM	0%
CCS[C@]12CS(=O)(=O)O[C@@]13[C@@H](CN2)O[C@@H](n1cc(C)c(=O)[nH]c1=O)[C@@H]3O	ROD		MT-4	EC50		>250 µM
CCCCC(=O)Oc1ccc(COP(=O)(OCc2ccc(OC(=O)CCCC)cc2)OP(=O)(O)OC[C@@H]2C=C[C@H](n3cc(C)c(=O)[nH]c3=O)O2)cc1	ROD	syncytia / microscopy	CEM	EC50		2.9 µM
CN1C2N=CN=C(N)C2=NC1c1cn(CP(=O)(O)O)nn1	ROD		CEM	inhibition	100 µM	0%
CCCCN1C(=O)[C@@H](Cc2ccccc2)NC1=S		cytopathic effect / XTT	MT-4	inhibition	1 µg/mL	20%
Cc1cn([C@H]2C=C[C@@H](CO)O2)c(=O)[nH]c1=O	ROD	syncytia / microscopy	CEM/TK-	EC50		173 µM
CCOP(=O)(CC(O)n1cc(N2C=CC(NC(C)=O)NC2=O)nn1)OCC	ROD			inhibition	100 µM	0%
CC(=O)N1C(=O)[C@@H](Cc2ccccc2)NC1=S		cytopathic effect / XTT	MT-4	inhibition	1 µg/mL	16%
CCOP(=O)(CCCn1cc(C2N=C3C(N)=NC=NC3N2C)nn1)OCC	ROD		CEM	inhibition	100 µM	0%
O=C(NCCc1ccccc1)Nc1nc2c(Cl)cccc2s1		RT activity	MT-4	inhibition	0.1 µg/mL	1%
CCO[C@]12CS(=O)(=O)O[C@@]13[C@@H](CN2)O[C@@H](n1cc(C)c(=O)[nH]c1=O)[C@@H]3OC(C)=O	ROD		CEM	EC50		>250 µM
O=c1ccn(-c2cn(C(O)P(=O)(O)O)nn2)c(=O)[nH]1	ROD		CEM	inhibition	100 µM	0%

A second listing of 2 rows from above:

structure,strain,method,cell line,measure,dose,result
N#Cc1csc(NC(=O)NCCc2ccccc2)n1,,cytopathic effect / XTT,MT-4,inhibition,10 µg/mL,0%
CCCCCCCCCCCC(=O)Oc1ccc(COP(=O)(OCc2ccc(OC(=O)CCCCCCCCCCC)cc2)OP(=O)(O)OC[C@@H]2C=C[C@H](n3cc(C)c(=O)[nH]c3=O)O2)cc1,ROD,syncytia / microscopy,CEM/TK-,EC50,,0.23 µM